Compound potency records, mixed from different reports. Data source: NIAID ChemDB in PubChem.

Common to all: cytotoxicity tests; cells: VERO; measure: CC50

Neighbouring rows are from separate reports. CCn is the concentration with n% toxicity to the cells. Blank or dashed fields: not listed here. Two numbers with a dash give a range or band.

Nc1ncnc2c1ncn2C1OC(CO)C=C1F ; value: >100 µM
C[P+]1(C)CCc2c1ccc1ccccc21 ; value: >62.5 µg/mL
CC[C@@H](CO)NCCN[C@@H](CC)CO ; method: MTT ; value: >62.5 µg/mL
CN1CCN(C(=S)S)CC1 ; value: 0.61 µg/mL
O=c1[nH]c(=O)n([C@@H]2C=C[C@@H](CO)O2)cc1F ; value: 3 µM
COc1ccc(CNc2nc(=O)c3cc(C(F)(F)F)cc([N+](=O)[O-])c3o2)cc1OC ; method: MTT ; value: 0.226 µg/mL
CC1=C(CCC(=O)O)c2cc3nc(cc4[nH]c(cc5[nH]c(cc1n2)c(C)c5C(C)O)c(C)c4C(C)O)C(C)=C3CCC(=O)O ; value: 100 µM
Nc1nc2c(ncn2[C@@H]2CS[C@@H](CO)O2)c(=O)[nH]1 ; value: 63.6 µM
N#Cc1c(NC(=O)Nc2ccccc2)nc2[nH]c(=O)[nH]c(=O)c2c1-c1ccc(Cl)cc1 ; value: 70 µg/mL
Nc1nc2c(ncn2COC(CO)CO)c(=O)[nH]1 ; value: 1–5 µM
Nc1nc2c(ncn2COCCOP2(=O)OCc3ccccc3O2)c(=O)[nH]1 ; value: >325 µM
O=C1Nc2ccccc2C(c2ccccc2)=NC1NCc1ccco1 ; value: 50 µM
Cc1cn2c(C(=O)NCc3cccc(C(F)(F)F)c3)c(C)nc2s1 ; method: fluorescence ; value: 59 µM
CC[n+]1ccc(C2=C3C=CC(=N3)C(c3cc[n+](CC)cc3)=C3C=CC(=C(c4cc[n+](CC)cc4)C4=NC(=C(c5cc[n+](CC)cc5)C5=CC=C2[NH2+]5)C=C4)[NH2+]3)cc1.[Cl-] ; value: 5.9 µM
CCCCC(=O)OC[C@@H]1C=C[C@H](n2cc(F)c(N)nc2=O)O1 ; value: >100 µM
N#Cc1c(Cl)nc2nc(Cl)nc(Cl)c2c1-c1ccc(Br)cc1 ; value: 190 µg/mL
OC[C@H]1O[C@H](n2cnc3c(Cl)ncnc32)CS1 ; value: 86.1 µM
COc1ccc(CC(N=Cc2ccc(O)cc2)C(=O)N[C@H]2[C@@H](O)[C@H](n3cnc4c(N(C)C)ncnc43)O[C@@H]2CO)cc1 ; value: 1.7 µg/mL
CC[C@H](/C=C/[C@@H](C)[C@H]1CC[C@H]2[C@@H]3CC(=O)[C@@]4(O)C[C@@H](Br)CC[C@]4(C)[C@H]3CC[C@]12C)C(C)C ; method: MTT ; value: 139 µM
O=c1cc(N2CCN(CC3CCCCC3)CC2)sc2c([N+](=O)[O-])cc(C(F)(F)F)cc12 ; method: MTT ; value: >64 µg/mL
Nc1nc(F)nc2c1ncn2[C@@H]1CS[C@@H](CO)O1 ; value: 45.4 µM
C[C@H]1O[C@@H](O[C@H]2[C@@H](O)C[C@H](O[C@H]3[C@@H](O)C[C@H](O[C@H]4CC[C@@]5(C)[C@H](CC[C@@H]6[C@@H]5CC[C@]5(C)[C@@H](C7=CC(=O)OC7)CC[C@]65O)C4)O[C@@H]3C)O[C@@H]2C)C[C@H](O)[C@@H]1O ; method: MTT ; value: 5.67 µM
CC[C@@H](C(C)C)[C@@H](O)[C@H](O)[C@@H](C)[C@H]1CC[C@H]2[C@@H]3COC(=O)C4C[C@H](O)[C@H](O)C[C@]4(C)[C@H]3CC[C@]12C ; method: MTT ; value: 427 µM
O=C1C=C(Nc2cnccn2)c2ccccc2C1=O ; value: 0.65 µg/mL
Cc1cccc2c1OP(=O)(OCC(CO)CCn1cc(C)c(=O)[nH]c1=O)OC2 ; value: >350 µM
Cc1cn2c(C(=O)NCc3ccc(Oc4ccc(F)cc4)cc3)c(C)nc2s1 ; method: fluorescence ; value: 13.9 µM
N#Cc1c(NC(=O)Nc2ccccc2)nc2[nH]c(=O)[nH]c(=O)c2c1-c1ccc(Br)cc1 ; value: 80 µg/mL
Nc1ccn([C@@H]2C=C(CO)[C@@H](O)[C@@H]2O)c(=O)n1 ; method: neutral red ; value: >32 µg/mL
CC[C@@H](C(C)C)[C@H](O)[C@@H](O)[C@@H](C)[C@H]1CC[C@H]2[C@@H]3CC(=O)[C@@]4(F)C[C@@H](O)CC[C@]4(C)[C@H]3CC[C@]12C ; method: MTT ; value: 160 µM
Cc1cn([C@H]2C[C@H](N=[N+]=[N-])[C@@H](CO)O2)c(=O)[nH]c1=O ; value: 29 µM
O=[N+]([O-])c1c[nH]cc1-c1ccc(Cl)cc1Cl ; value: 1 µg/mL
CCN(CC)CC(O)CNc1ccc(NCC2CO2)c2c1C(=O)c1ccccc1C2=O ; value: 0.28 µg/mL
Cc1cccc2c1OP(=O)(OCCOCn1cnc3c(=O)[nH]c(N)nc31)OC2 ; value: >314 µM
CO[C@H]1/C=C/O[C@@]2(C)Oc3c(C)c(O)c4c(O)c(c(/C=N/N5CCN(C)CC5)c(O)c4c3C2=O)NC(=O)/C(C)=C\C=C\[C@H](C)[C@H](O)[C@@H](C)[C@@H](O)[C@@H](C)[C@H](OC(C)=O)[C@@H]1C ; method: MTS / absorbance ; value: >128 µM
Cc1cn2c(C(=O)NCc3ccc(N4CCN(c5ccc(C(F)(F)F)cn5)CC4)c(F)c3)c(C)nc2s1 ; method: fluorescence ; value: >100 µM
CCCCNC(=S)NNC(=O)c1ccncc1 ; value: >62.5 µg/mL
CC[C@H](/C=C/[C@@H](C)[C@H]1CC[C@H]2[C@@H]3CC=C4C[C@@H](O)CC[C@]4(C)[C@H]3CC[C@]12C)C(C)C ; method: MTT ; value: 479 µM
CC#Cc1cn([C@@H]2O[C@H](COP(=O)(O)Oc3ccccc3)[C@@H](O)[C@@H]2O)c(=O)[nH]c1=O ; value: >500 µM
CC(C)C(=O)NC1N=C(c2ccccc2)c2ccccc2NC1=O ; value: 2.5 µM
C=C[C@]1(C)C=C2C(=O)c3c(NC=O)cccc3C(C)(C)[C@H]2C[C@H]1O ; value: >100 µM
CCOC(=O)C(=O)N=Nc1nc2c(O)c3ccccc3c(O)c2s1 ; value: 9.8 µg/mL
CO[C@H]1/C=C/O[C@@]2(C)Oc3c(C)c(O)c4c(O)c(c(/C=N/N5CCN(C)CC5)c(O)c4c3C2=O)NC(=O)/C(C)=C\C=C\[C@H](C)[C@H](O)[C@@H](C)[C@@H](O)[C@@H](C)[C@H](OC(C)=O)[C@@H]1C ; method: absorbance ; value: >100 µM
COc1cc(O)c(CC=C(C)C)c2c1C(=O)CC(c1ccc(O)cc1)O2 ; value: 18 µg/mL
CO[C@H]1/C=C/O[C@@]2(C)Oc3c(C)c(O)c4c(O)c(c(/C=N/N5CCN(C)CC5)c(O)c4c3C2=O)NC(=O)/C(C)=C\C=C\[C@H](C)[C@H](O)[C@@H](C)[C@@H](O)[C@@H](C)[C@H](OC(C)=O)[C@@H]1C ; method: luminescence ; value: >100 µM
Nc1nc(=O)n([C@@H]2C[Se][C@H](CO)O2)cc1F ; value: >100 µM
CC[C@@H](C(C)C)[C@@H](O)[C@H](O)[C@@H](C)[C@H]1CC[C@H]2[C@@H]3CC(=O)[C@@]4(O)C[C@H](O)[C@H](O)C[C@]4(C)[C@H]3CC[C@]12C ; method: MTT ; value: 262 µM
O=C(NC1N=C(c2ccccc2)c2ccccc2NC1=O)c1ccc(Cl)c(Cl)c1 ; value: 6 µM
CCCN1CCN(c2ccc([N+](=O)[O-])c3no[n+]([O-])c23)CC1 ; value: 0.07 µg/mL
CC[C@@H](C(C)C)[C@H](O)[C@@H](O)[C@@H](C)[C@H]1CC[C@H]2[C@@H]3CC(=O)[C@@]4(O)C[C@@H](F)CC[C@]4(C)[C@H]3CC[C@]12C ; method: MTT ; value: 250 µM
O=C(Nc1ccc(C2=NCCN2)cc1)c1ccc(C(=O)Nc2ccc(C3=NCCN3)cc2)c(Br)c1 ; value: >100 µg/mL
CC(=O)Nc1nc(=O)n([C@H]2C=C[C@@H](CO)O2)cc1F ; method: MTT ; value: 103 µM
NC(=O)c1[nH]nc([C@@H]2O[C@H](CO)[C@@H](O)[C@H]2O)c1O ; method: neutral red ; value: 19 µg/mL
N#Cc1c(N)nc2[nH]c(=O)[nH]c(=O)c2c1-c1cccc([N+](=O)[O-])c1 ; value: 170 µg/mL
Cc1c2ccncc2c(C)c2c1[nH]c1ccc(Cl)cc12 ; value: 0.25 µg/mL
O=c1[nH]c(=O)n([C@H]2C[C@H](F)[C@@H](CO)O2)cc1/C(Br)=C/I ; value: 29.5 µM
C[n+]1ccc(C2=C3C=CC(=N3)C(c3ccc(-c4ccccc4)cc3)=C3C=CC(=C(c4cc[n+](C)cc4)C4=NC(=C(c5ccc(-c6ccccc6)cc5)C5=CC=C2[NH2+]5)C=C4)[NH2+]3)cc1.[Cl-] ; value: 0.84 µM
CCN(CCO)CCNc1ccc(C)c2sc3ccccc3c(=O)c12 ; value: 4.4 µg/mL
C[C@H]1O[C@@H](O[C@H]2CC[C@@]3(C)[C@H](CC[C@@H]4[C@@H]3C[C@@H](O)[C@]3(C)[C@@H](C5=CC(=O)OC5)CC[C@]43O)C2)C[C@H](O)[C@@H]1O[C@H]1C[C@H](O)[C@H](O[C@H]2C[C@H](O)[C@H](O[C@@H]3C[C@H](CO)[C@@H](O)[C@H](O)[C@H]3O)[C@@H](C)O2)[C@@H](C)O1 ; method: MTT ; value: 22.15 µM
CC#Cc1cn([C@@H]2O[C@H](COP(=O)(O)OCC(F)(F)F)[C@@H](O)[C@@H]2O)c(=O)[nH]c1=O ; value: >250 µM
OCc1cn(Cc2ccccc2Cl)cc1-c1ccc(Cl)cc1 ; value: 15 µg/mL
[N-]=[N+]=N[C@H]1C[C@H](n2cc(C#CI)c(=O)[nH]c2=O)O[C@@H]1CO ; value: 14.4 µM
Nc1ccn([C@H]2CS[C@@H](CO)O2)c(=O)n1 ; value: >100 µM
Cc1cn2c(C(=O)NCc3ccc(N4CCC(c5ccc(OC(F)(F)F)cc5)CC4)cc3)c(C)nc2s1 ; method: fluorescence ; value: >100 µM
Cc1cn([C@H]2C[C@H](N=[N+]=[N-])[C@@H](CO)O2)c(=O)[nH]c1=O ; value: >100 µM
O=C1c2cccnc2-c2nccc3c2c1nc1ccccc13 ; value: >10 µg/mL
O=[N+]([O-])c1c[nH]cc1-c1cccc(Cl)c1Cl ; value: 1 µg/mL
COc1ccc2c(C)cc(N/N=C/c3cccc(C)n3)nc2c1 ; value: 4.92 µg/mL
C[C@H]1O[C@@H](O[C@H]2CC[C@]3(C=O)[C@H]4CC[C@]5(C)[C@@H](C6=CC(=O)OC6)CC[C@]5(O)[C@@H]4CC[C@]3(O)C2)C[C@H](O)[C@@H]1O ; method: MTT ; value: >250 µM
Nc1ncnc2c1ncn2[C@@H]1O[C@@H](CO)C=C1F ; value: >100 µM
O=C(c1ccncc1)n1nc(-c2ccccc2)c(N=Nc2nc3ccc([N+](=O)[O-])cc3s2)c1-c1ccccc1 ; value: >10 µg/mL
CC#Cc1cn([C@@H]2O[C@H](COP(=O)(NCCC)Oc3ccccc3)[C@@H](O)[C@@H]2O)c(=O)[nH]c1=O ; value: 125 µM
COc1cc(O)c2c(=O)cc(-c3ccc(OC)c(-c4c(O)cc(O)c5c(=O)cc(-c6ccc(O)cc6)oc45)c3)oc2c1 ; value: 11.5 µg/mL
C/C(=N\N1CC(=O)NC1=O)c1ccc([N+](=O)[O-])o1 ; value: 23.4 µg/mL
COc1cc([N+](=O)[O-])ccc1C(=O)N[C@H]1N=C(c2ccccc2)c2ccccc2NC1=O ; value: <0.3 µM
O=C(c1ccc(Br)cc1)c1cnc2nc(-c3ccccc3)c(-c3ccccc3)nn12 ; value: 16 µg/mL
O=c1[nH]c(=O)n([C@H]2C[C@H](F)[C@@H](CO)O2)cc1C#CI ; value: 22.9 µM
Cc1cccc(C)c1NC1=CC(=O)C(=O)c2ccccc21 ; value: 4.9 µg/mL
CC[C@@H](C(C)C)[C@H](O)[C@@H](O)[C@@H](C)[C@H]1CC[C@H]2[C@@H]3CC(=O)[C@@]4(O)C[C@@H](Br)CC[C@]4(C)[C@H]3CC[C@]12C ; method: MTT ; value: 185 µM
C/C(=N\Nc1cc(C)c2cc(C)ccc2n1)c1ccccn1 ; value: 0.43 µg/mL
N#Cc1c(NC(=S)Nc2ccccc2)nc2[nH]c(=O)[nH]c(=O)c2c1-c1ccc(Cl)cc1 ; value: 40 µg/mL
O=C1C=CN([C@@H]2O[C@H](CO)[C@@H](O)[C@H]2O)C(=O)C1 ; method: neutral red ; value: 320 µg/mL
Cc1ccc2c(c1)COP(=O)(OCCOCn1cnc3c(=O)[nH]c(N)nc31)O2 ; value: >314 µM
CCN(CC)CCNc1ccc(CO)c2sc3ccccc3c(=O)c12 ; value: <4.12 µg/mL
O=c1cc[nH]c(=S)[nH]1 ; method: neutral red ; value: >100 µg/mL
CC(C)(C)CC(C)(O)CN(CC(C)(O)CC(C)(C)C)C(=S)S ; value: 28.4 µg/mL
CCC(=O)NC1N=C(c2ccccc2)c2ccccc2NC1=O ; value: 2.5 µM

Again, the opening 10 rows:

| compound | method | value |
|---|---|---|
| Nc1ncnc2c1ncn2C1OC(CO)C=C1F |  | >100 µM |
| C[P+]1(C)CCc2c1ccc1ccccc21 |  | >62.5 µg/mL |
| CC[C@@H](CO)NCCN[C@@H](CC)CO | MTT | >62.5 µg/mL |
| CN1CCN(C(=S)S)CC1 |  | 0.61 µg/mL |
| O=c1[nH]c(=O)n([C@@H]2C=C[C@@H](CO)O2)cc1F |  | 3 µM |
| COc1ccc(CNc2nc(=O)c3cc(C(F)(F)F)cc([N+](=O)[O-])c3o2)cc1OC | MTT | 0.226 µg/mL |
| CC1=C(CCC(=O)O)c2cc3nc(cc4[nH]c(cc5[nH]c(cc1n2)c(C)c5C(C)O)c(C)c4C(C)O)C(C)=C3CCC(=O)O |  | 100 µM |
| Nc1nc2c(ncn2[C@@H]2CS[C@@H](CO)O2)c(=O)[nH]1 |  | 63.6 µM |
| N#Cc1c(NC(=O)Nc2ccccc2)nc2[nH]c(=O)[nH]c(=O)c2c1-c1ccc(Cl)cc1 |  | 70 µg/mL |
| Nc1nc2c(ncn2COC(CO)CO)c(=O)[nH]1 |  | 1–5 µM |